Legend:
[1] = tested on: ascarid ovi; assay: Ovocidal activity, production test, disinfection of ambient objects; details: 3% aqueous solution
[2] = tested on: ascarid ovi; assay: Ovocidal activity, laboratory test on ascarid ovi on a watch glass; format: in vivo, pig.ascarid; details: 3% aqueous solution
[3] = tested on: virus of influenza, type A, (H1N1); assay: Virucidal activity, virus titre in allantoic liquid by hemagglutination reaction; details: 1% solution
[4] = tested on: Virus of hepatitis B; assay: Virucidal activity, HBsAg titre in serum after exposure; details: 1% solution in 0.85% sodium chloride solution

`COP(=O)(O)NC(CCl)C(Cl)c1ccc([N+](=O)[O-])cc1` (stereo not drawn) was tested, and the “Death of ascarid ovi, % Tests production” value [1] was 100% and the “Death of ascarid ovi, % Tests laboratory” value [2] was 100%.
With `CCOP(=O)(O)NC(CCl)C(Cl)c1ccc([N+](=O)[O-])cc1` (stereo not drawn) [Example 31, 1-para-nitrophenyl-1,3-dichloropropanamidophosphor-ic acid ethyl ether] the “Death of ascarid ovi, % Tests production” value [1] was 98%.
In the case of `CCOP(=O)(O)NC(CO)C(O)c1ccc([N+](=O)[O-])cc1` (stereo not drawn) [Example 29, 1-para-nitrophenyl-1,3-propanediolamidophos-phoric acid ethyl ether], the “Death of ascarid ovi, % Tests production” value [1] is reported as 97%.
For “di-[d(-)-threo-3-para-nitrophenyl-2-di- chloracetamido-3-hydroxypropyl ether]d(+)-threo-1-para--nitrophenyl-1,3-dihydroxyisopropylamidophosphoric acid”, the “Death of viruses (%) at 30 minutes exposure, Virus of influenza A” value [3] was 100% and the “Death of viruses (%) at 30 minutes exposure, Virus of hepatitis B” value [4] was 100%.
`COP(=O)(O)NC(CCl)C(O)c1ccc([N+](=O)[O-])cc1` (stereo not drawn) was tested, and the “Death of ascarid ovi, % Tests production” value [1] was 98% and the “Death of ascarid ovi, % Tests laboratory” value [2] was 100%.
For `COP(=O)(O)NC(CO)C(O)c1ccc([N+](=O)[O-])cc1` (stereo not drawn), the “Death of ascarid ovi, % Tests production” value [1] was 99% and the “Death of ascarid ovi, % Tests laboratory” value [2] was 100%.
`CNC(=S)S` [Known ovocidal preparation (carbathion), sodium N-methyldithiocarbamate dihydrate, reference compound] was tested, and the “Death of ascarid ovi, % Tests production” value [1] was 78%.
In the case of `CCOP(=O)(O)NC(CCl)C(O)c1ccc([N+](=O)[O-])cc1` (stereo not drawn) [Example 30], the “Death of ascarid ovi, % Tests production” value [1] is reported as 99%.

— EP0404945A1 (priority 1989, dated 1990)
